Measured values from several laboratories, pooled; numbers as filed in NIAID ChemDB.

All rows: whole-cell or culture tests; organism: HIV-1

ECn: concentration that inhibits the pathogen or its effect by n%.

structure | read by | cells | read-out | strain or isolate | mutations | value
COC(=O)[C@H](C)NP(=O)(OC[C@@H]1C=C[C@H](n2cc(C)c(=O)[nH]c2=O)O1)Oc1ccc(Br)cc1 | p24 | PBMC | EC50 | P798-1 Clinical isolate ZDV-resistant | RT-M41L T215Y | 0.0075 µM
O=C1Nc2ccc(Cl)cc2[C@@](C#CC2CC2)(C(F)(F)F)O1 | MTT | MT-4 | EC50 | IIIB | - | 0.0087 µM
C=C[C@]1(CO)O[C@@H](n2cc(C)c(=O)[nH]c2=O)C[C@@H]1O | β-galactosidase | HeLa | EC50 | - | RT-M184V | >100 µM
Cc1cn([C@H]2C=C[C@@H](COP(=O)(O)OCc3ccccc3)O2)c(=O)[nH]c1=O | cytopathic effect | MT-4 | EC50 | - | - | 0.034 µM
C#C[C@]1(CO)O[C@@H](n2cnc3cncnc32)C[C@@H]1O | cytopathic effect / MTT | MT-4 | EC50 | LAI | - | 135 µM
Nc1nc(NC2CC2)c2ncn([C@H]3C=C[C@@H](CO)C3)c2n1 | cytopathic effect / XTT | MT-2 | EC50 | Site-directed mutant | RT-K65R K103N | 10.75 µM
CN[C@@H]1[C@H](O[C@@H]2OC[C@@H](O)[C@H](O)[C@H]2O)[C@@H](O)[C@H](O[C@H]2c3cc(C)c(C(=O)N[C@H](C)C(=O)O)c(O)c3-c3c(cc4c(c3O)C(=O)c3cc(OC)cc(O)c3C4=O)[C@@H]2O)O[C@@H]1C | syncytia | CEM | EC50 | - | - | 2.8 µg/mL
Cc1cc(C)c(Oc2ccc([N+](=O)[O-])c(NC3CCN(Cc4ccc(S(C)(=O)=O)cc4)CC3)n2)c(C)c1 | MTT | MT-4 | EC50 | IIIB | Resistant strain (K103N + Y181C) | >24 µM
Nc1nc2c(ncn2[C@H]2CO[C@@H](CO)O2)c(=O)[nH]1 | cytopathic effect / XTT | MT-2 | EC50 | Site-directed mutant | RT-L74V K103N | 3.96 µM
Nc1ccn([C@@H]2CO[C@H](CO)S2)c(=O)n1 | p24 | H9 | EC50 | IIIB | - | 0.08 µM
CC(C)Nc1cccnc1N1CCN(C(=O)c2cc3cc(NS(C)(=O)=O)ccc3[nH]2)CC1 | p24 | PBMC | EC90 | 472 clinical isolates AZT-resistant | - | >10 µM
C[C@H](Cn1cnc2c(N)ncnc21)OCP(=O)(O)O | - | TZM-bl | EC50 | LAI | E138Q | 5.5 µM
Nc1nc(=O)n([C@@H]2CO[C@H](CO)S2)cc1F | p24 | MT-4 | EC50 | IIIB | - | 3 µM
Nc1ccn([C@H]2CC[C@@H](CO)O2)c(=O)n1 | p24 | MT-4 | EC50 | 126 3TC (RT-M184V) | RT-M184V | 2.8 µM
Cc1cc(C#N)cc(C)c1Oc1ccc([N+](=O)[O-])c(NC2CCN(Cc3ccc(S(C)(=O)=O)cc3)CC2)n1 | MTT | MT-4 | EC50 | IIIB | Resistant strain (K103N + Y181C) | >32 µM
CCC[C@@]1(CCc2ccccc2)CC(O)=C([C@H](CC)c2cccc(NS(=O)(=O)c3ccc(C(F)(F)F)cn3)c2)C(=O)O1 | p24 | PBMC | EC50 | Isolate N. Amer 1 | - | <0.17 µM
Cc1cn([C@H]2C=C[C@@H](CO)O2)c(=O)[nH]c1=O | cytopathic effect / XTT | MT-2 | EC50 | NL4-3 Recombinant | - | 4.1 µM
CC(C)c1c(COC(N)=O)cn(Cc2ccncc2)c1Sc1cc(Cl)cc(Cl)c1 | cytopathic effect / MTT | - | EC50 | - | RT-K103N | <30 µM
C#C[C@]1(CO)O[C@@H](n2cc(I)c(=O)[nH]c2=O)C[C@@H]1O | β-galactosidase | HeLa | EC50 | HXB2 | - | 0.37 µM
Cc1cn([C@H]2C=C[C@@H](COP(=O)(O)O)O2)c(=O)[nH]c1=O | cytopathic effect | CEM + CEM TK- | EC50 | - | - | 24 µM
Cc1cc(C)c(Nc2ccc([N+](=O)[O-])c(NC3CCN(Cc4ccc(S(C)(=O)=O)cc4)CC3)n2)c(C)c1 | MTT | MT-4 | EC50 | IIIB | - | 0.0078 µg/mL
C#C[C@]1(CO)O[C@@H](n2cc(C)c(=O)[nH]c2=O)C[C@@H]1O | β-galactosidase | HeLa | EC50 | - | RT-Y181C | 0.13 µM
Nc1ccn([C@H]2CC[C@@H](CO)O2)c(=O)n1 | - | MT-2 | EC50 | G910-6 AZT-resistant (RT D67N K70R T215Y K219Q) | RT-D67N K70R T215Y K219Q | 0.46 µM
O=C(NCc1ccc(F)cc1)c1nc(N2CCCCS2(=O)=O)c2cccnc2c1O | p24 | Macrophage | EC50 | BaL | - | <0.104 µM
Cc1cc(/C=C/C#N)cc(C)c1Nc1ccnc(Nc2ccc(C#N)cc2)n1 | - | TZM-bl | EC50 | LAI | E138K | 0.0008 µM
CN(C)CCOC(=O)COc1ccc(Cl)cc1 | - | MT-4 | EC50 | LAV | - | >100 µg/mL
O=c1c2ccccc2n2nnc3ccc(NCCCN4CCN(CCCNc5ccc6nnn7c8ccccc8c(=O)c5c67)CC4)c1c32 | p24 | PBL | EC50 | Nevirapine-resistant | - | 0.01 µM
Nc1nc(=O)n([C@@H]2CS[C@H](CO)O2)cc1F | cytopathic effect / XTT | MT-2 | EC50 | HXB2-D WT | - | 0.77 µM
Cc1cn([C@H]2C[C@H](N=[N+]=[N-])[C@@H](CO)O2)c(=O)[nH]c1=O | cytopathic effect / XTT | MT-2 | EC50 | LAI | - | 0.5 µM
Cc1cn([C@@H]2O[C@H](CO[Si](C)(C)C(C)(C)C)C3(OS(=O)(=O)C=C3N)[C@H]2O[Si](C)(C)C(C)(C)C)c(=O)n(C)c1=O | syncytia | CEM | EC50 | IIIB | - | 0.03 µM
Nc1nc2c(ncn2[C@H]2CO[C@@H](CO)O2)c(=O)[nH]1 | cytopathic effect / XTT | MT-2 | EC50 | - | RT-L74V | 7.5 µM
O=C(CCCN1CCC(O)(c2ccc(Cl)cc2)CC1)c1ccc(F)cc1 | - | MT-4 | EC50 | LAV | - | >10 µg/mL
O=[N+]([O-])c1ccccc1S(=O)(=O)c1ccccc1 | cytopathic effect / XTT | CEM + CEM-SS | EC50 | IIIB | - | 1.94 µM
Cc1cn([C@H]2C=C[C@@H](CO)O2)c(=O)[nH]c1=O | plaque count | CD4+HELA + HeLa | EC50 | HXB2 | - | 0.45 ± 0.07 µM
CCCN(C)C(=O)Oc1nsnc1-c1c(Cl)ccc(N)c1Cl | MTT | MAGI | EC50 | IIIB | RT-V189I | 0.031 µM
Cc1ccnc2c1NC(=O)c1cccnc1N2C1CC1 | cytopathic effect / XTT | U-937 | EC50 | IIIB | - | 0.34 µM
CN1N=C(N)c2cn([C@@H]3O[C@H](COP(=O)(O)O)[C@@H](O)[C@H]3O)c3ncnc1c23 | XTT | CEM + CEM-SS | EC50 | TP1 | - | 0.07 µM
Cc1cn([C@H]2C[C@H](N=[N+]=[N-])[C@@H](COP(=O)(OCc3ccccc3)OCc3ccccc3)O2)c(=O)[nH]c1=O | - | CEM + CEM TK- | EC50 | - | - | >100 µM
O=c1[nH]cnc2c1ncn2[C@H]1CC[C@@H](CO)O1 | RT activity | MT-4 | EC50 | HXB2-D184+294 (RT M184V P294S) | RT-M184V P294S | 37.5 µM
Cc1cn([C@H]2C[C@H](N=[N+]=[N-])[C@@H](CO)O2)c(=O)[nH]c1=O | p24 | PBMC | EC50 | X267-5 Clinical isolate ZDV-resistant | RT-M41L F116S T215Y | 0.6 µM
CC[C@H]1[C@@H]2C[C@H]3[C@@H]4N(C)c5ccccc5[C@]45C[C@@H]([C@@H]2[C@H]5O)N3[C@@H]1O | - | MT-4 | EC50 | LAV | - | >10 µg/mL
O=c1[nH]cnc2c1ncn2[C@H]1CC[C@@H](CO)O1 | plaque count | CD4+HELA + HeLa | EC50 | HXB2 | RT-V75T | 11 µM
CC(C)(C)NC(=O)[C@@H]1C[C@@H]2CCCC[C@@H]2CN1C[C@@H](O)[C@H](Cc1ccccc1)NC(=O)[C@H](CC(N)=O)NC(=O)c1ccc2ccccc2n1 | antigen | HUT-78/IIIB/LAI + HUT 78 | EC50 | IIIB/LAI | - | >44 µM
Cc1cn([C@H]2C[C@H](N=[N+]=[N-])[C@@H](CO)O2)c(=O)[nH]c1=O | cytopathic effect | MT-4 | EC50 | - | - | 0.7 µM
CN1CCC[C@@H]1CCO[C@](C)(c1ccccc1)c1ccc(Cl)cc1 | - | MT-4 | EC50 | LAV | - | >1 µg/mL
O=S1(c2ccccc2)=NC(=S)Nc2ccccc21 | cytopathic effect / XTT | PBMC | EC50 | IIIB | - | 0.4 µM
O=c1[nH]cnc2c1ncn2[C@H]1CC[C@@H](CO)O1 | syncytia | CEM | EC50 | IIIB nevirapine-resistant (RT Y181C) | RT-Y181C | 25 µM
C[C@H](Cn1cnc2c(N)ncnc21)OCP(=O)(O)O | cytopathic effect / XTT | MT-2 | EC50 | Site-directed mutant | RT-K65R H221Y | 12.96 µM
CCOC(=O)c1c[nH]c(Sc2cc(Cl)cc(Cl)c2)c1C(C)C | cytopathic effect / MTT | MT-4 | EC50 | IIIB | - | 17 µM
Nc1ccn([C@@H]2CC[C@H](CO)O2)c(=O)n1 | - | Macrophage | EC50 | BaL | - | 0.003 µM
Cc1cn([C@@H]2O[C@H](CO[Si](C)(C)C(C)(C)C)[C@@]3(OS(=O)(=O)C=C3N)[C@H]2O[Si](C)(C)C(C)(C)C)c(=O)[nH]c1=O | syncytia | CEM | EC50 | IIIB TSAO-T(RT-E138K) | RT-E138K | 4 µM
CCO/N=C(\c1ccc(Br)cc1)C1CCN(C2(C)CCN(C(=O)c3c(C)cc[n+]([O-])c3C)CC2)CC1 | p24 | PBMC | EC50 | R5-02 R5 clinical isolate | - | 0.0022 µM
CC(C)c1c(CO)cn(Cc2ccncc2)c1Sc1ccccc1 | cytopathic effect / MTT | MT-4 | EC90 | IIIB | - | 0.15 µM
CC(C)=CCN1Cc2cccc3[nH]c(=S)n(c23)C[C@@H]1C | syncytia | CEM | EC50 | IIIB TIBO R82150-resistant (RT L100I) | RT-L100I | ≥5 µM
Nc1ccn([C@H]2C[C@H](O)[C@](CO)(CF)O2)c(=O)n1 | β-galactosidase | HeLa | EC50 | - | RT-L74V | 0.0019 µM
Nc1nc(NC2CC2)c2ncn([C@H]3C=C[C@@H](CO)C3)c2n1 | cytopathic effect / XTT | MT-2 | EC50 | LAI | - | 2.5 µM
CC(C)=CCN1Cc2cccc3[nH]c(=S)n(c23)C[C@@H]1C | cytopathic effect / XTT | U-937 | EC50 | IIIB | - | 0.17 µM
S=C(NCCc1cccs1)Nc1ccc(Br)cn1 | plaque count | HT4 + HeLa | EC50 | G704-2 Clinical isolate NRTI-resistant | RT-M41L D67N K70R L210W T215Y | 0.01 µM
C#C[C@]1(CO)O[C@@H](n2cnc3c(N)ncnc32)C[C@@H]1O | cytopathic effect / MTT | MT-4 | EC50 | LAI | - | 0.00098 µM
Cc1ccnc(C(=O)CC(=O)c2cccc(Cc3ccccc3)c2)c1 | p24 | MT-4 | EC95 | IIIB | - | 5 µM
Nc1nc(N)c2ncn([C@H]3CO[C@@H](CO)O3)c2n1 | cytopathic effect / XTT | MT-2 | EC50 | - | RT-K65R | 120 µM
CC(C)=CCN1Cc2cc(Cl)cc3[nH]c(=S)n(c23)C[C@@H]1C | syncytia | CEM | EC50 | IIIB TSAO-T(RT-E138K) | RT-E138K | 0.1 µM
Fc1cccc(F)c1C1SCc2nc3ccccc3n21 | cytopathic effect / XTT | CEM + CEM-SS | EC50 | 214 | - | 1.11 µM
CC(C)c1c(CO)cn(Cc2ccncc2)c1Sc1cc(Cl)cc(Cl)c1 | cytopathic effect / MTT | - | EC50 | - | RT-K103N | <2.3 µM

6 of the rows above, restated:

structure | read by | cells | read-out | strain or isolate | mutations | value
CC(C)(C)NC(=O)[C@@H]1C[C@@H]2CCCC[C@@H]2CN1C[C@@H](O)[C@H](Cc1ccccc1)NC(=O)[C@H](CC(N)=O)NC(=O)c1ccc2ccccc2n1 | antigen | HUT-78/IIIB/LAI + HUT 78 | EC50 | IIIB/LAI | - | >44 µM
O=C(CCCN1CCC(O)(c2ccc(Cl)cc2)CC1)c1ccc(F)cc1 | - | MT-4 | EC50 | LAV | - | >10 µg/mL
CCC[C@@]1(CCc2ccccc2)CC(O)=C([C@H](CC)c2cccc(NS(=O)(=O)c3ccc(C(F)(F)F)cn3)c2)C(=O)O1 | p24 | PBMC | EC50 | Isolate N. Amer 1 | - | <0.17 µM
Cc1cc(C)c(Nc2ccc([N+](=O)[O-])c(NC3CCN(Cc4ccc(S(C)(=O)=O)cc4)CC3)n2)c(C)c1 | MTT | MT-4 | EC50 | IIIB | - | 0.0078 µg/mL
C[C@H](Cn1cnc2c(N)ncnc21)OCP(=O)(O)O | cytopathic effect / XTT | MT-2 | EC50 | Site-directed mutant | RT-K65R H221Y | 12.96 µM
Nc1nc(=O)n([C@@H]2CO[C@H](CO)S2)cc1F | p24 | MT-4 | EC50 | IIIB | - | 3 µM

An empty or dashed field is not shown. Neighbouring rows are from separate reports.